Compound potency records, mixed from different reports. Data source: NIAID ChemDB in PubChem.

Common to all: tests on isolated targets; organism: HIV-1; protein: Protease; measure: IC50

An empty or dashed field is not shown. ICn is the concentration giving n% inhibition. Neighbouring rows are from separate reports.

compound	strain or isolate	method	setting	result
CC(C)(C)OC(=O)N[C@@H](Cc1ccccc1)[C@@H](O)C[C@@H](Cc1ccc(OCP(=O)(O)O)cc1)C(=O)N[C@H]1c2ccccc2C[C@H]1O		absorbance		0.00006 µM
O=c1cc(-c2ccc(O)cc2)oc2cc(O)cc(O)c12	SF2	HPLC / fluorescence		60 µM
CC(C)N(CC(=O)N(CC(=O)NC12NC(=O)C3(O)C4C5CC(C6C5C3C61)C42)Cc1ccccc1)C(=O)CN(C)C(=O)OCc1ccccc1		absorbance		0.5 µM
CC(C)[C@H](NC(=O)OCc1ccccn1)C(=O)N[C@@H](Cc1ccccc1)[C@H](O)[C@@H](O)[C@H](Cc1ccccc1)NC(=O)[C@@H](NC(=O)OCc1ccccn1)C(C)C		fluorescence		<0.001 µM
CC(=O)C[C@H](NC(C)=O)C(=O)N[C@@H](Cc1ccccc1)[C@H](O)CN1C[C@H]2CCCC[C@H]2C[C@H]1C(=O)NC(C)(C)C				0.08 µM
CC(NC(=O)OCc1ccccc1)C(=O)NC(C(=O)NC12NC(=O)C3(O)C4C5CC(C6C5C3C61)C42)C(C)C		absorbance		0.6 µM
O=C1N(Cc2cccc(CO)c2)[C@H](Cc2ccccc2)[C@H](O)[C@@H](O)[C@@H](Cc2ccccc2)N1Cc1cccc(CO)c1	RF			0.0079 µM
CC(C)[C@H](NC(=O)OCCN1CCCC1)C(=O)N[C@@H](Cc1ccccc1)[C@@H](O)[C@H](Cc1ccccc1)NC(=O)[C@@H](NC(=O)OCc1ccccc1)C(C)C		fluorescence		>0.005 µM
Cc1ccc(Cl)cc1N1CCN(Cc2cn([C@@H](Cc3ccccc3)[C@H](Cc3ccccc3)NC(=O)NC(C)C)nn2)CC1		fluorescence		>5 µM
CC(C)[C@H](NC(=O)COc1cccc2cnccc12)C(=O)N[C@@H](Cc1ccccc1)[C@H](O)C(=O)N1CSC[C@H]1C(=O)NC(C)(C)C		HPLC		0.0066 µM
CC(C)[C@H](NC(=O)N(C)Cc1ccccn1)C(=O)N[C@@H](Cc1ccccc1)[C@H](O)C(=O)N1[C@H](C(=O)NC(C)(C)C)C[C@@H]2CCCC[C@@H]21	BRU	substrate cleavage		0.025 µM
CC(C)(C)OC(=O)N[C@@H](Cc1ccccc1)[C@H](O)CNC[C@@H](O)[C@H](Cc1ccccc1)NC(=O)C(C)(O)c1ccccn1		HPLC	pH 5.5	<10 µM
CC(C)(C)OC(=O)[C@@H]1CCCN1C[C@@H](O)[C@H](Cc1ccccc1)NC(=O)[C@H](CC(N)=O)NC(=O)c1ccc2ccccc2c1		absorbance		0.05 µM
CC(C)(C)OC(=O)N[C@@H](Cc1ccccc1)[C@@H](O)C[C@@H](Cc1ccc(OCC(=O)O)cc1)C(=O)N[C@H]1c2ccccc2C[C@H]1O		absorbance		0.00004 µM
O=c1c(O)c(-c2ccccc2)oc2cc(O)cc(O)c12	SF2	HPLC / fluorescence		520 µM
O=C(N[C@@H](Cc1ccccc1)[C@H](Cc1ccccc1)n1cc(CN2CCN(c3ccccc3)CC2)nn1)OC1CCCC1		fluorescence		<5 µM
O=C(O)C1Cc2cc3c(cc2C(O)C1CO)OCO3		substrate cleavage / HPLC		>50 µM
O=C(N[C@@H](Cc1ccccc1)[C@H](Cc1ccccc1)n1cc(CN2CCC3(CC2)C(=O)NCN3c2ccccc2)nn1)OC1CCCC1		fluorescence		>5 µM
CC1(C)CC[C@]2(C(=O)O)CC[C@]3(C)C(=CC[C@@H]4[C@@]5(C)CC[C@H](O)C(C)(C)[C@@H]5CC[C@]43C)[C@@H]2C1		absorbance		<80 µM
COc1ccc(C(O)C(C)Oc2ccc([C@H]3O[C@H](c4ccc(OC(C)C(O)c5ccc(OC)c(OC)c5)c(OC)c4)[C@H](C)[C@H]3C)cc2OC)cc1OC		substrate cleavage		38.9 µM
O=c1oc2c(O)c(O)cc3c(=O)oc4c(O)c(O)cc1c4c23		substrate cleavage / fluorescence		9 µg/mL
CC(C)[C@H](NC(=O)OCc1ccccc1)C(=O)N[C@@H](Cc1ccccc1)C(=O)C(F)(F)CCc1ccccc1		fluorescence		<0.005 µM
O=C(O)c1cc(=O)c2ccc(O)cc2o1	SF2	HPLC / fluorescence		285 µM
CC(C)(C)NC(=O)[C@@H]1C[C@@H]2CCCC[C@@H]2CN1C[C@@H](O)[C@H](Cc1ccccc1)NC(=O)[C@@H](NC(=O)COc1cccnc1)C(C)(C)S(C)(=O)=O				0.0005 µM
O=c1c(-c2ccc(O)cc2)coc2cc(OC3OC(CO)C(O)C(O)C3O)cc(O)c12		substrate cleavage / fluorescence		360 µg/mL
COc1ccc(C(=O)O[C@H]2[C@@H](OC)OC[C@H](O)[C@@H]2O)cc1		substrate cleavage / HPLC		>50 µM
CC(C)(C)NC(=O)[C@@H]1C[C@@H]2CCCC[C@@H]2CN1C[C@@H](O)[C@H](Cc1ccccc1)NC(=O)[C@H](CC(N)=O)NC(=O)c1ccccc1				0.044 µM
O=C1C[C@@H](c2ccc(O)cc2)Oc2cc(O)cc(O)c21	SF2	HPLC / fluorescence		165 µM
CC(C)(C)NC(=O)[C@H]1N(C(=O)[C@@H](O)[C@H](Cc2ccccc2)NC(=O)[C@H](CC(N)=O)NC(=O)OCc2ccccc2)CSC1(C)C		HPLC		0.031 µM
COc1cccc2c(=O)cc(C(=O)O)oc12	SF2	HPLC / fluorescence		106 µM
O=C(O)/C=C/c1ccc(O)c(O)c1				>100 µM
O=C1OC(c2ccccc2)(c2ccccc2)CC(O)=C1SCc1ccccc1		substrate cleavage		0.11 µM
CC(C)[C@@H](NC(=O)OCc1ccccc1)C(=O)N[C@@H](Cc1ccccc1)[C@H](O)CNC[C@@H](O)[C@H](Cc1ccccc1)NC(=O)OC(C)(C)C		HPLC	pH 5.5	~10 µM
CCOC(=O)COc1ccc(C[C@H](C[C@H](O)[C@H](Cc2ccccc2)NC(=O)OC(C)(C)C)C(=O)N[C@H]2c3ccccc3C[C@H]2O)cc1		absorbance		0.0001 µM
CC(C)(C)NC(=O)[C@H]1N(C(=O)[C@@H](O)[C@H](Cc2ccccc2)NC(=O)[C@H](CC(N)=O)NC(=O)COc2ccc(-c3ccccc3)cc2)CSC1(C)C		HPLC		0.0022 µM
CC(C)[C@H](NC(=O)CCc1cccnc1)C(=O)N[C@@H](Cc1ccccc1)[C@@H](O)[C@H](O)[C@H](Cc1ccccc1)NC(=O)[C@@H](NC(=O)CCc1cccnc1)C(C)C		fluorescence		>0.001 µM
CC(C)[C@H](NC(=O)c1ccc2ccccc2n1)C(=O)N[C@@H](Cc1ccccc1)[C@H](O)C(=O)N1CCC[C@H]1C(=O)NC(C)(C)C	BRU	substrate cleavage		0.0043 µM
CC(C)N(CC(=O)NC12NC(=O)C3(O)C4C5CC(C6C5C3C61)C42)C(=O)CN(C)C(=S)Cc1ncccn1		absorbance		5 µM
O=C(N[C@H](CO)[C@H](O)c1ccc([N+](=O)[O-])cc1)C(Cl)Cl		substrate cleavage / HPLC		>50 µM
CC(C)(C)OC(=O)N[C@@H](Cc1ccccc1)[C@H](O)CNC[C@@H](O)[C@H](Cc1ccc(OCC(=O)N2CCOCC2)cc1)NC(=O)OC(C)(C)C		substrate cleavage		0.075 µM
CC(C)[C@H](NC(=O)OCCN1CCOCC1)C(=O)N[C@@H](Cc1ccccc1)C(O)[C@H](Cc1ccccc1)NC(=O)[C@@H](NC(=O)OCCN1CCOCC1)C(C)C		fluorescence		>0.1 µM
Cc1ccc(Cl)cc1N1CCN(Cc2cn([C@@H](Cc3ccccc3)[C@H](Cc3ccccc3)NC(=O)O[C@H]3CCOC3)nn2)CC1		fluorescence		<5 µM
CC(C)=CCC1=C(O)[C@@](O)(CC=C(C)C)C(=O)C(C(=O)CC(C)C)=C1O		substrate cleavage / HPLC		>50 µM
CC(C)[C@H](NS(=O)(=O)N(C)Cc1ccccn1)C(=O)N[C@@H](Cc1ccccc1)[C@H](O)[C@H](O)[C@H](Cc1ccccc1)NC(=O)[C@@H](NS(=O)(=O)N(C)Cc1ccccn1)C(C)C		fluorescence		<0.1 µM
CC(C)(C)NC(=O)[C@@H]1C[C@@H]2CCCC[C@@H]2N1C(=O)[C@@H](O)[C@H](Cc1ccccc1)NC(=O)[C@H](CC(N)=O)NC(=O)COc1ccc2cc(Br)ccc2c1	BRU	substrate cleavage		0.0058 µM
CC(C)(C)OC(=O)[C@H]1CCON1C1(C)OC(C)(C(O)CO)C2OC(C)(C)OC21		substrate cleavage / HPLC		>50 µM
CC(C)(C)NC(=O)[C@@H]1C[C@@H]2CCCC[C@@H]2CN1C[C@@H](O)[C@H](Cc1ccccc1)NC(=O)[C@@H](NC(=O)c1ccc2ccccc2n1)C(C)(C)C				0.0092 µM
COC(=O)N[C@H](C(=O)N[C@@H](Cc1ccccc1)[C@@H](O)CN(Cc1ccc(-c2ccccn2)cc1)NC(=O)[C@@H](NC(=O)OC)C(C)(C)C)C(C)(C)C		substrate cleavage / fluorescence		0.00002 µM
CC(C)(C)OC(=O)N[C@@H](Cc1ccccc1)[C@@H](O)C[C@@H](Cc1ccc(OCc2nnnn2Cc2ccccc2)cc1)C(=O)N[C@H]1c2ccccc2C[C@H]1O		absorbance		0.0004 µM
CC(C)(C)NC(=O)[C@@H]1CSCN1C(=O)[C@@H](O)[C@H](Cc1ccccc1)NC(=O)[C@H](CC(N)=O)NC(=O)COc1cccc2ccccc12		HPLC		0.024 µM
Cc1cc(SC2=C(O)CC(CCc3ccc(O)cc3)(C3CC3)OC2=O)c(C(C)(C)C)cc1CO		HPLC / absorbance		0.001 µM
CCC[C@H](NC(=O)COc1cccc2ccccc12)C(=O)N[C@@H](Cc1ccccc1)[C@H](O)C(=O)N1CSC[C@H]1C(=O)NC(C)(C)C		HPLC		0.0088 µM
O=c1cc(-c2cc(O)c(O)c(O)c2)oc2c(O)c(O)c(O)c(O)c12	SF2	HPLC / fluorescence		11 µM
CC(C)(C)NC(=O)[C@@H]1C[C@@H]2CCCC[C@@H]2CN1C[C@@H](O)[C@H](Cc1ccccc1)NC(=O)CC(C)(C)S(C)(=O)=O				0.06 µM
CC(C)[C@H](NC(=O)OCc1ccccc1)C(=O)N[C@@H](Cc1ccccc1)[C@@H](O)[C@H](O)[C@H](Cc1ccccc1)NC(=O)[C@@H](NC(=O)OCc1ccccc1)C(C)C		radiometric		0.0456 µM
CC(C)(C)NC(=O)[C@@H]1C[C@@H]2CCCC[C@@H]2N1C(=O)[C@@H](O)[C@H](Cc1ccc(O)cc1)NC(=O)[C@H](CC(N)=O)NC(=O)COc1cccc2ccccc12	BRU	substrate cleavage		0.01 µM
COc1cc(O)c2c(=O)c3cc4c(c(O)c3oc2c1)OC(C)(C)C=C4		substrate cleavage		>100 µg/mL
Cc1c(Cl)cccc1N1CCN(Cc2cn([C@@H](Cc3ccccc3)[C@H](Cc3ccccc3)NC(=O)OC3CCCC3)nn2)CC1		fluorescence		<5 µM
CC(C)[C@H](NC(=O)OCc1ccccn1)C(=O)N[C@@H](Cc1ccccc1)[C@@H](O)[C@H](O)[C@H](Cc1ccccc1)NC(=O)[C@@H](NC(=O)OCc1ccccn1)C(C)C		fluorescence		<0.001 µM
CCCC1(CCc2ccc(O)cc2)CC(O)=C(Sc2cc(C)c(OCCO)cc2C(C)(C)C)C(=O)O1		HPLC / absorbance		0.006 µM

The last 8 rows once more:

compound | strain or isolate | method | setting | result
O=c1cc(-c2cc(O)c(O)c(O)c2)oc2c(O)c(O)c(O)c(O)c12 | SF2 | HPLC / fluorescence |  | 11 µM
CC(C)(C)NC(=O)[C@@H]1C[C@@H]2CCCC[C@@H]2CN1C[C@@H](O)[C@H](Cc1ccccc1)NC(=O)CC(C)(C)S(C)(=O)=O |  |  |  | 0.06 µM
CC(C)[C@H](NC(=O)OCc1ccccc1)C(=O)N[C@@H](Cc1ccccc1)[C@@H](O)[C@H](O)[C@H](Cc1ccccc1)NC(=O)[C@@H](NC(=O)OCc1ccccc1)C(C)C |  | radiometric |  | 0.0456 µM
CC(C)(C)NC(=O)[C@@H]1C[C@@H]2CCCC[C@@H]2N1C(=O)[C@@H](O)[C@H](Cc1ccc(O)cc1)NC(=O)[C@H](CC(N)=O)NC(=O)COc1cccc2ccccc12 | BRU | substrate cleavage |  | 0.01 µM
COc1cc(O)c2c(=O)c3cc4c(c(O)c3oc2c1)OC(C)(C)C=C4 |  | substrate cleavage |  | >100 µg/mL
Cc1c(Cl)cccc1N1CCN(Cc2cn([C@@H](Cc3ccccc3)[C@H](Cc3ccccc3)NC(=O)OC3CCCC3)nn2)CC1 |  | fluorescence |  | <5 µM
CC(C)[C@H](NC(=O)OCc1ccccn1)C(=O)N[C@@H](Cc1ccccc1)[C@@H](O)[C@H](O)[C@H](Cc1ccccc1)NC(=O)[C@@H](NC(=O)OCc1ccccn1)C(C)C |  | fluorescence |  | <0.001 µM
CCCC1(CCc2ccc(O)cc2)CC(O)=C(Sc2cc(C)c(OCCO)cc2C(C)(C)C)C(=O)O1 |  | HPLC / absorbance |  | 0.006 µM